Compound potency records, mixed from different reports. Data source: NIAID ChemDB in PubChem.

Common to all: tests in culture; species: HIV-1; read by: RT activity; measure: EC50

Blank or dashed fields: not listed here. ECn: concentration that inhibits the pathogen or its effect by n%. Two numbers with a dash give a range or band. Rows are shuffled and stem from different studies.

O=C(CCNC(=O)C(=O)/C=C(\O)c1cccn1Cc1ccc(F)cc1)OC[C@@H]1CC[C@H](n2ccc(=O)[nH]c2=O)O1 ; strain or isolate: IIIB ; cells: MT-4 ; result: >10 µM
Nc1nc(=O)n([C@@H]2CC[C@H](CO)O2)cc1F ; strain or isolate: LAI ; cells: CEM + CEM-SS ; result: 0.044 µM
Nc1ncnc2c1ncn2[C@H]1CC[C@@H](CO)O1 ; strain or isolate: LAI ; cells: CEM + CEM TK- ; result: 1.1 µM
Cc1ccnc2c1NC(=O)c1cccnc1N2C1CC1 ; strain or isolate: CLADE D ; cells: PBMC ; result: 0.1 µM
Cc1cn([C@H]2C=C[C@@H](COC(=O)CNC(=O)C(=O)/C=C(\O)c3cccn3Cc3ccc(F)cc3)O2)c(=O)[nH]c1=O ; strain or isolate: IIIB ; cells: MT-4 ; result: 0.73 µM
C[n+]1ccc(C2=C3C=CC(=N3)C(c3ccc(-c4ccccc4)cc3)=C3C=CC(=C(c4cc[n+](C)cc4)C4=NC(=C(c5ccc(-c6ccccc6)cc5)C5=CC=C2[NH2+]5)C=C4)[NH2+]3)cc1.[Cl-] ; strain or isolate: LAV ; cells: PBMC ; result: <1 µM
Cc1cccc(-c2c3nc(c(-c4cccc(C)c4)c4ccc([nH]4)c(-c4cccc(C)c4)c4nc(c(-c5cccc(C)c5)c5ccc2[nH]5)C=C4)C=C3)c1 ; strain or isolate: LAV ; cells: PBMC ; result: 0.05–10 µM
Cc1cn([C@H]2C[C@H](N=[N+]=[N-])[C@@H](CO)O2)c(=O)[nH]c1=O ; strain or isolate: IIIB ; cells: MT-2 ; result: 0.001 µM
CC(C)=CCN1Cc2cccc3[nH]c(=S)n(c23)C[C@@H]1C ; strain or isolate: Subtype B isolate ; cells: PBMC ; result: 0.09 µM
Nc1nc(=O)n([C@H]2C[C@H](O)[C@@H](CO)O2)cc1C1CC1 ; strain or isolate: IIIB ; cells: H9 ; result: >10 µg/mL
CC(C)(C)NC(=O)[C@@H]1C[C@@H]2CCCC[C@@H]2CN1C[C@@H](O)[C@H](Cc1ccccc1)NC(=O)[C@H](CC(N)=O)NC(=O)c1ccc2ccccc2n1 ; strain or isolate: Group O isolate ; cells: PBMC ; result: 0.015 µM
CCCc1cc(=O)oc2c3c(c4c(c12)OC(C)(C)C=C4)O[C@@H](C)[C@H](C)[C@@H]3O ; strain or isolate: ROJO(SI) ; cells: PBMC ; result: 1.5 µM
Cc1c(O)cccc1C(=O)N[C@@H](CSc1ccccc1)[C@H](O)CN1C[C@H]2CCCC[C@H]2C[C@H]1C(=O)NC(C)(C)C ; strain or isolate: BRU ; cells: MT-2 ; result: 0.0234 µM
Nc1nc2c(ncn2[C@H]2C=C[C@@H](CO)O2)c(=O)o1 ; strain or isolate: IIIB ; conditions: chronic infection ; cells: U-937/HIV-1(IIIB) + U-937 ; result: 13 µg/mL
CC(=O)SCCOP(=O)(OCCSC(C)=O)OC[C@@H]1CC[C@H](n2cnc3c(N)ncnc32)O1 ; strain or isolate: LAI ; cells: CEM + CEM TK- ; result: 0.00077 µM
O=c1[nH]c(=O)n([C@H]2C=C[C@@H](CO)O2)cc1C#CCCCO ; strain or isolate: LAI ; cells: CEM + CEM-SS ; result: 120 µM
Cc1ccnc2c1NC(=O)c1cccnc1N2C1CC1 ; strain or isolate: PDBC ; cells: MT-2 ; result: 0.15 µM
Nc1nc(=O)n([C@@H]2C[C@H](O)[C@@H](CO)O2)cc1-c1ccccc1 ; strain or isolate: IIIB ; cells: H9 ; result: >10 µg/mL
CC(C)=CCN1Cc2cccc3[nH]c(=S)n(c23)C[C@@H]1C ; strain or isolate: PDBC ; cells: MT-2 ; result: 0.25 µM
Nc1nc(=O)n([C@@H]2C[C@H](O)[C@@H](CO)O2)cc1C1CC1 ; strain or isolate: IIIB ; cells: H9 ; result: >10 µg/mL
CCCCCCCCCCCCCCCCOP(=O)(OC[C@H]1OC(O)[C@H](O)[C@@H](O)[C@@H]1O)OC[C@H]1O[C@@H](n2cc(C)c(=O)[nH]c2=O)C[C@@H]1N=[N+]=[N-] ; strain or isolate: LAV-Bru ; conditions: 15 d ; cells: CEM ; result: <0.2 µM
Nc1ccn([C@H]2CC[C@@H](CO)O2)c(=O)n1 ; strain or isolate: RF ; cells: C8166 ; result: 0.03 µM
Oc1ccccc1-c1c2nc(c(-c3ccccc3O)c3ccc([nH]3)c(-c3ccccc3O)c3nc(c(-c4ccccc4O)c4ccc1[nH]4)C=C3)C=C2 ; strain or isolate: LAV ; cells: PBMC ; result: 3.1 µM
Cc1ccsc1-c1cn([C@@H]2C[C@H](O)[C@@H](CO)O2)c(=O)[nH]c1=O ; strain or isolate: IIIB ; cells: H9 ; result: >10 µg/mL
Nc1nc2c(ncn2[C@@H]2C[C@H](COP(=O)(O)O)[C@@H](O)[C@H]2O)c(=O)o1 ; strain or isolate: IIIB ; cells: H9 ; result: >500 µg/mL
Nc1nc(Cl)nc2c1ncn2[C@@H]1C[C@H](O)[C@H](CO)O1 ; cells: CEM + CEM-SS ; result: >10 µM
Nc1ccn([C@H]2CC[C@@H](CO)O2)c(=O)n1 ; strain or isolate: IIIB ; cells: MT-4 ; result: 0.45 µM
Cc1cn([C@H]2C[C@H](F)[C@@H](CO)O2)c(=O)[nH]c1=O ; strain or isolate: IIIB ; cells: H9 ; result: 0.0174 µM
CC(=O)SCCOP(=O)(OCCSC(C)=O)OC[C@@H]1CC[C@H](n2cc(C)c(=O)[nH]c2=O)O1 ; strain or isolate: LAI ; cells: CEM + CEM-SS ; result: 1.7 µM
Nc1nc(=O)n([C@@H]2CS[C@H](CO)O2)cc1F ; strain or isolate: H112-2 (AZT-susceptible) ; cells: PBMC ; result: 0.006 µM
Cc1cn([C@H]2C[C@H](N=[N+]=[N-])[C@@H](CO)O2)c(=O)[nH]c1=O ; strain or isolate: LAV-Bru ; conditions: 7 d ; cells: U-937 ; result: <0.2 µM
COc1cc(C(=O)N2CCN(C(=O)c3cc(OC)c(OC)c(OC)c3)C(COC(=O)NCC(C)(C)C)C2)cc(OC)c1OC ; strain or isolate: BaL ; cells: Macrophage + Monocytes/macrophages ; result: <100 µM
Cc1cn([C@H]2C[C@H](N=[N+]=[N-])[C@@H](CO)O2)c(=O)[nH]c1=O ; strain or isolate: LAI ; cells: PBMC (PHA stimulated) + PBMC ; result: 0.003 µM
Cc1cn([C@H]2C[C@H](N=[N+]=[N-])[C@@H](CO)O2)c(=O)[nH]c1=O ; strain or isolate: WEJO ; cells: PBMC ; result: 0.02 µM
C[n+]1ccc(-c2c3nc(c(-c4cc[n+](C)cc4)c4ccc([nH]4)c(-c4cc[n+](C)cc4)c4nc(c(-c5cc[n+](C)cc5)c5ccc2[nH]5)C=C4)C=C3)cc1 ; strain or isolate: LAV ; cells: PBMC ; result: 0.66–3.23 µM
Nc1nc2c(ncn2[C@H]2C=C[C@@H](CO)C2)c(=O)o1 ; strain or isolate: IIIB ; conditions: chronic infection ; cells: U-937/HIV-1(IIIB) + U-937 ; result: 41 µg/mL
COC(=O)N[C@H](C(=O)N[C@@H](Cc1ccccc1)[C@@H](O)CN(Cc1ccc(-c2ccccn2)cc1)NC(=O)[C@@H](NC(=O)OC)C(C)(C)C)C(C)(C)C ; strain or isolate: BRU ; cells: MT-2 ; result: 0.00528 µM
Cc1cn([C@H]2C[C@H](N=[N+]=[N-])[C@@H](CO)O2)c(=O)[nH]c1=O ; strain or isolate: LAV-1 ; cells: PBMC ; result: 0.004 µM
C[C@]12CC[C@H](O)C[C@@H]1CC[C@@H]1[C@@H]2CC[C@]2(C)C(=O)[C@H](Br)C[C@@H]12 ; strain or isolate: LAV ; cells: CEM ; result: 1.1 µM
CCCc1cc(=O)oc2c3c(c4c(c12)OC(C)(C)C=C4)O[C@H](C)[C@@H](C)[C@@H]3O ; strain or isolate: IIIB ; cells: U-937 ; result: 0.2 µM
CCCN(CCC)C(=O)OCC1CN(C(=O)c2cc(OC)c(OC)c(OC)c2)CCN1C(=O)c1cc(OC)c(OC)c(OC)c1 ; strain or isolate: BaL ; cells: Macrophage + Monocytes/macrophages ; result: <100 µM
CC1=C(CCC(=O)O)c2cc3nc(cc4[nH]c(cc5[nH]c(cc1n2)c(C)c5C(C)O)c(C)c4C(C)O)C(C)=C3CCC(=O)O ; strain or isolate: LAV ; cells: PBMC ; result: 1.94 µM
Cc1cn([C@H]2C[C@H](N=[N+]=[N-])[C@@H](CO)O2)c(=O)[nH]c1=O ; strain or isolate: IIIB ; cells: MT-4 ; result: 1.4 µM
Nc1nc(Cl)nc2c1ncn2[C@@H]1C=C[C@H](CO)O1 ; cells: CEM + CEM-SS ; result: >10 µM
Cc1cn([C@H]2C[C@H](N=[N+]=[N-])[C@@H](COP(=O)(O)OC[C@H]3OC(O)[C@@H](O)[C@@H](O)[C@@H]3O)O2)c(=O)[nH]c1=O ; strain or isolate: LAV-Bru ; conditions: 7 d ; cells: CEM ; result: <0.2 µM
CC(=O)SCCOP(=O)(OCCSC(C)=O)OC[C@H]1O[C@@H](n2cc(C)c(=O)[nH]c2=O)C[C@@H]1N=[N+]=[N-] ; strain or isolate: LAI ; cells: MT-4 ; result: 0.018 µM
CC(C)(C)NC(=O)[C@@H]1C[C@@H]2CCCC[C@@H]2CN1C[C@@H](O)[C@H](Cc1ccccc1)NC(=O)[C@H](CC(N)=O)NC(=O)c1ccc2ccccc2n1 ; strain or isolate: RF ; cells: MT-2 ; result: 0.0134 µM
Nc1nc2c(ncn2[C@@H]2O[C@H](COP(=O)(O)O)[C@@H](O)[C@H]2O)c(=O)o1 ; strain or isolate: IIIB ; conditions: chronic infection ; cells: U-937/HIV-1(IIIB) + U-937 ; result: 21 µg/mL
NCC#Cc1cn([C@H]2C=C[C@@H](CO)O2)c(=O)[nH]c1=O ; strain or isolate: IIIB ; cells: MT-4 ; result: >100 µM
O=c1[nH]cnc2c1ncn2[C@H]1CC[C@@H](CO)O1 ; strain or isolate: LAI ; cells: CEM + CEM-SS ; result: 4.3 µM
O=c1[nH]c(=O)n([C@H]2C=C[C@@H](CO)O2)cc1C#CCCCCO ; strain or isolate: IIIB ; cells: MT-4 ; result: >100 µM
COC(=O)[C@H](C)NP(=O)(OC[C@H]1O[C@@H](n2cc(C)c(=O)[nH]c2=O)C[C@@H]1N=[N+]=[N-])Oc1ccccc1 ; strain or isolate: IIIB ; cells: CEM + CEM TK- ; result: 1.7–4.1 µM
Cc1cn([C@H]2C=C[C@@H](COC(=O)CCNC(=O)C(=O)/C=C(\O)c3cc(OCc4ccccc4)cc(OCc4ccccc4)c3)O2)c(=O)[nH]c1=O ; strain or isolate: LAI ; cells: CEM + CEM-SS ; result: 5.6 µM
O=c1[nH]c(=O)n([C@H]2C=C[C@@H](CO)O2)cc1C#CCCO ; strain or isolate: IIIB ; cells: MT-4 ; result: >100 µM

Repeating the final 8 entries:

smiles | strain or isolate | conditions | cells | result
CC(C)(C)NC(=O)[C@@H]1C[C@@H]2CCCC[C@@H]2CN1C[C@@H](O)[C@H](Cc1ccccc1)NC(=O)[C@H](CC(N)=O)NC(=O)c1ccc2ccccc2n1 | RF | - | MT-2 | 0.0134 µM
Nc1nc2c(ncn2[C@@H]2O[C@H](COP(=O)(O)O)[C@@H](O)[C@H]2O)c(=O)o1 | IIIB | chronic infection | U-937/HIV-1(IIIB) + U-937 | 21 µg/mL
NCC#Cc1cn([C@H]2C=C[C@@H](CO)O2)c(=O)[nH]c1=O | IIIB | - | MT-4 | >100 µM
O=c1[nH]cnc2c1ncn2[C@H]1CC[C@@H](CO)O1 | LAI | - | CEM + CEM-SS | 4.3 µM
O=c1[nH]c(=O)n([C@H]2C=C[C@@H](CO)O2)cc1C#CCCCCO | IIIB | - | MT-4 | >100 µM
COC(=O)[C@H](C)NP(=O)(OC[C@H]1O[C@@H](n2cc(C)c(=O)[nH]c2=O)C[C@@H]1N=[N+]=[N-])Oc1ccccc1 | IIIB | - | CEM + CEM TK- | 1.7–4.1 µM
Cc1cn([C@H]2C=C[C@@H](COC(=O)CCNC(=O)C(=O)/C=C(\O)c3cc(OCc4ccccc4)cc(OCc4ccccc4)c3)O2)c(=O)[nH]c1=O | LAI | - | CEM + CEM-SS | 5.6 µM
O=c1[nH]c(=O)n([C@H]2C=C[C@@H](CO)O2)cc1C#CCCO | IIIB | - | MT-4 | >100 µM